The exact form of at least one protein or probe is not confirmed. Tags and fusion partners may be left off the protein sequences shown.
Tested on: T1, Rpn4 (His-tagged recombinant) (Candida auris)
T1 sequence (looked up, limits assumed): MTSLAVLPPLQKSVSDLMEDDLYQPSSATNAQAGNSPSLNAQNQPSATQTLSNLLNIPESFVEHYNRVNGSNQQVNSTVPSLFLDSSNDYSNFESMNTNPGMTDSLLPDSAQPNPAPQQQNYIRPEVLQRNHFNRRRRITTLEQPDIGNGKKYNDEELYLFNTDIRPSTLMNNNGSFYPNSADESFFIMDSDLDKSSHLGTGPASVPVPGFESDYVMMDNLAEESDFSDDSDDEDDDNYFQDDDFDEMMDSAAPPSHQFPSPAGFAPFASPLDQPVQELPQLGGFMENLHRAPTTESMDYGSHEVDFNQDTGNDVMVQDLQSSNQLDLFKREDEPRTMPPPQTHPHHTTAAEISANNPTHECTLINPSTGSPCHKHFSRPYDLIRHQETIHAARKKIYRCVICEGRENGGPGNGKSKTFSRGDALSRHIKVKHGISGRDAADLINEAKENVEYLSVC
Assay: EMSA
Settings: […] (binding buffer not stated), recombinant protein, protein details: His, probe letters rebuilt from the primers and the genome

Row | Sequence | binding result
1 | GGTTTCTCGGACATGGAGATGGAAAAGTGAAGATTTGCCTTTAAAGTGGACTACATGCGATATATATATTGGCAGGCGAAAAGAAATGCCAAACAATGTCGCAGAGGGAGAGGTAGAAGCAGCCCCAGCTACGCTGCAGGAGCAGCAGGCATGAGATAGGGAATTCTGGCGGCAAATAGCGTATTGTGCGAGAGTTGCGCACGTTGGAGACGGCTGGCGGTGGAACTTCGGAAGGTGCGAGTTCCGGCTCTGGCCACTCCCACCGGGAGCCTGGCGGTGCACATTTAATCACTGGGGACAAAATGCCACAAAAAAACCGCCCTTCTCAGCCCTAACCACATACAACAAAAATAACCACCAGCTTCATAACCTGTGGGCAACAACTGGAGTCTCCACTTCC (double strand) [PCDR1] | binds
2 | TTTTGTTGCTTCTCGAAGTGCTACCTGGTCACTTAGAAGGCTGTGGAAGGATAGCGAAGGCTTCGAAAAAAGCTAAAGTTCGAGGTGGAAAGGTAAGGGTTTTTGGTTTGTGTAATTTGGATGAGTCCAGTCAAACACACTACAGGCCAAGCTTAGGTAAGAATTTCCTGAGCTGTAAGAAGAGTGTGTTGTGAGATGAGAAAGAAAATGTGAGAAATGGTGGCAAATATATATGGAGCTTACTAATGCAGGCTGAGGTGGCGTGCAGCACCGAAGCCCCAGAACAGATAAGACCTAGAAAATATGGGCTGCGAATCTGGCAGGTGAATTGGACCGGGAGGGTACCACCAAGATGAGGCCCACAATGATGCTAGAAAATCTCTGAAAACACCAACATGTTGCTCCCGTTCTTCTGATTATAGAAATGCAGTTTTCCCTCTCTTGGAACC (double strand) [PRPN4] | binds

From publication PMC10746192
